Data set [1] has as its system HIV-1 Bal. Format: cell-based. How it is done: (§1) The IC50 of the various mCD4-conjugates were measured in TZM-bl cells (NIH AIDS Reagent Program, Germantown, MD 20874, US). This cell line expresses high densities of CD4, CCR5 and CXCR4. It contains a luciferase reporter gene under control of HIV LTR, which will be transcribed and translated into luciferase protein, if the cells get infected with HIV and start producing Tat. Briefly, 50 μl of TZM-bl cells (1 × 10^5 cells/mL) supplemented with 30 μg/mL DEAE dextran were incubated with a 50 μl of a 10-fold serial dilution of the compounds under investigation in 96-well flat bottom plates, prior to inoculation with 50 μl of various viruses (see Tables & and 2; 50, 100 or 200 TCID50 was used depending on the virus). As a positive control, 50 μl of compound-free medium was used and as a negative control, 100 μl of medium was added to 100 μl of TZM-bl cells. All conditions were done in triplicates. The plates were incubated for 48 hours (37 °C, 5% CO2). Subsequently, 120 μL of supernatants were removed, 75 μl of the luciferase substrate Steadylite (Perkin Elmer, Life Sciences, Zaventem, Belgium) were added to the wells and the plates were incubated at room temperature on an orbital shaker for 10 minutes. Next, the luciferase activity was measured using a TriStar LB941 luminometer (Berthold Technologies GmbH & Co. KG., Bad Wildbad, Germany) and expressed in relative light units (RLU) as a percentage of positive control wells. IC50 were calculated in GraphPad Prism 5.03 using non-linear regression (GraphPad Software, San Diego, CA, USA).

Data set [2] deals with HIV-1 IIIB. Format: cell-based. How it is done:
as §1

For data set [3], the system named is HIV-1 VI824. Format: cell-based. The settings on record: Table 2; D-R5; 10^-3 MOI, TZM-bl cells, 48 h; mean of at least 2 independent experiments, triplicates. How it is done:
as §1

Data set [4] concerns HIV-1 pREJO.c/2864 cl2. Format: cell-based. The settings on record: Table 2; T/F B-R5; 10^-3 MOI, TZM-bl cells, 48 h; mean of at least 2 independent experiments, triplicates. How it is done:
as §1

The test system of data set [5] is HIV-1 pTHRO.c/2626. Format: cell-based. The settings on record: Table 2; T/F B-R5; 10^-3 MOI, TZM-bl cells, 48 h; mean of at least 2 independent experiments, triplicates. How it is done: as §1
The test system of data set [6] is HIV-1 VI820. Format: cell-based. Conditions: Table 2; A-X4R5; 10^-3 MOI, TZM-bl cells, 48 h; mean of at least 2 independent experiments, triplicates. How it is done: as §1
The test system of data set [7] is HIV-1 pWITO.c/2474. Format: cell-based. The settings on record: Table 2; T/F B-R5; 10^-3 MOI, TZM-bl cells, 48 h; mean of at least 2 independent experiments, triplicates. How it is done:
as §1

Data set [8] relates to HIV-1 MN. Format: cell-based. Conditions: Table 2; B-X4; 10^-3 MOI, TZM-bl cells, 48 h; mean of at least 2 independent experiments, triplicates. How it is done: as §1
In data set [9] the test system is HIV-1 MP568 (CRF02). Format: cell-based. The settings on record: Table 2; AG-R5; 10^-3 MOI, TZM-bl cells, 48 h; mean of at least 2 independent experiments, triplicates. How it is done:
as §1

The test system of data set [10] is HIV-1 VI1888 (CRF01). Format: cell-based. The settings on record: Table 2; AE-R5; 10^-3 MOI, TZM-bl cells, 48 h; mean of at least 2 independent experiments, triplicates. How it is done: as §1
For data set [11], the system named is HIV-1 VI829. Format: cell-based. Conditions: Table 2; C-R5; 10^-3 MOI, TZM-bl cells, 48 h; mean of at least 2 independent experiments, triplicates. How it is done: as §1
Data set [12] relates to HIV-1 SF162. Format: cell-based. The settings on record: Table 2; B-R5; 10^-3 MOI, TZM-bl cells, 48 h; mean of at least 2 independent experiments, triplicates. How it is done: as §1
In data set [13] the test system is HIV-1 Ca10-3 (CRF01). Format: cell-based. The settings on record: Table 2; AE-X4; 10^-3 MOI, TZM-bl cells, 48 h; mean of at least 2 independent experiments, triplicates. How it is done: as §1
Data set [14] relates to HIV-1 p246F10. Format: cell-based. The settings on record: Table 2; T/F C-R5; 10^-3 MOI, TZM-bl cells, 48 h; mean of at least 2 independent experiments, triplicates. How it is done:
as §1

The subject of data set [15] is HIV-1 pZM247Fv2. Format: cell-based. The settings on record: Table 2; T/F C-R5; 10^-3 MOI, TZM-bl cells, 48 h; mean of at least 2 independent experiments, triplicates. How it is done: as §1
The test system of data set [16] is HIV-1 Env CD4 binding site. The data set can be described thus: HIV-1 Env surface levels (3BNC117 staining of infected cells). Format: cell-based. The settings on record: CEM-NKR cells infected with HIV-1 NL4.3, 1 μM, 10 min at 37 °C, flow cytometry. How it is done: (§2) Primary CD4^+ T cells were purified from human peripheral blood by positive selection (Miltenyi). About 98% of cells were CD4^+CD3^+. For activation, primary T cells were treated with PHA (1 μg/ml) for 24 h and then cultured with IL-2 (50 IU/ml) for 3–5 days before use. Primary cells were infected with HIV-1 NL4-3 and NLAD8 as described. Donor cells were used a few days later, when about 20% of the cells were Gag^+. Target cells were labeled with FarRed (2.5 μM; Molecular Probes). Donors were preincubated 1 h with the indicated doses of compounds. Donor and target cells were then mixed at a 1:2 ratio in 96-well plates at a final a concentration of 1.5 × 10^6/ml in 200 μl, in duplicates. After 48 or 72 h, cells were stained for intracellular Gag (KC57 mAb, Coulter) and analyzed by flow cytometry. When used, mCD4 or mCD4-conjugates were added 1 h before coculture. Measurement of the levels of Env epitopes at the surface of infected cells with 3BNC117 was performed by flow cytometry as previously described.
A general note: Flow cytometry measures light scatter and fluorescence of single cells or particles in a stream.

In data set [17] the test system is HIV-1 NL4.3. Format: cell-based. The settings on record: primary CD4 T cells infected with NL4.3, co-culture with autologous target cells, Gag+ targets by flow cytometry. How it is done:
as §2

Data set [18] concerns TZM-bl cells. The data set can be described thus: WST-1 cytotoxicity assay. Format: cell-based. Conditions: Table 2, 50% cytotoxic concentration, WST-1, 48 h. How it is done:
The water soluble tetrazolium-1 (WST-1) cell proliferation assay is based on the cleavage of the tetrazolium salt WST-1 to a formazan dye by a complex cellular mechanism. Because this bioreduction is dependent on the glycolytic production of NAD(P)H in viable cells, the amount of formazan dye formed is correlates directly to the number of viable cells in a culture. Quantification is done by measuring absorbance at 450 nm in a multiwell plate reader. TZMbl cells (10^4 cells/well) were plated in a 96-well plate and a serial dilution of compound was added. 48 h later, cell proliferation reagent was added and cell viability was measured compared to untreated control cultures. Cell viability was plotted against the compound concentration and non-linear regression analysis was performed to calculate the 50% cytotoxic concentration (CC50).

The test system of data set [19] is SHIV162P3. Format: cell-based, SHIV. The settings on record: Table 2; B-R5; 10^-3 MOI, TZM-bl cells, 48 h; mean of at least 2 independent experiments, triplicates. How it is done:
as §1

The mark [20] stands for this setting: mCD4.2-PS1 (K5 coupling) versus M48U1-PS1 (K11 coupling).

As usually defined, the IC50 is the concentration that inhibits the measured activity by half. For orientation: CC50 means the concentration giving 50% cytotoxicity. A high value points to better tolerance by the cells.

The structures appear in SMILES notation. Where two headings read alike, the source gives them in different places. A value given as a limit tells only on which side of the number the result lay.

On to `CC(C)C[C@@H]1NC(=O)CNC(=O)[C@H](CC(C)C)NC(=O)[C@H](CO)NC(=O)[C@H](CO)NC(=O)[C@@H]2CSSC[C@@H](C(=O)N[C@H](C(N)=O)C(C)C)NC(=O)[C@H](C)NC(=O)[C@@H]3CSSC[C@H](NC(=O)[C@H](CCCCNC(=O)CCOCCOCCNC(=O)CCN4C(=O)CC(SCCC(=O)NCCCC(=O)N[C@@H](CO)C(=O)N[C@@H](Cc5ccc(OS(=O)(=O)O)cc5)C(=O)N[C@@H](CC(=O)O)C(=O)N[C@@H](Cc5ccc(OS(=O)(=O)O)cc5)C(=O)N[C@@H](CO)C(=O)N[C@@H](Cc5ccc(OS(=O)(=O)O)cc5)C(=O)N[C@@H](CC(=O)O)C(=O)N[C@@H](Cc5ccc(OS(=O)(=O)O)cc5)C(=O)N[C@@H](CO)C(=O)N[C@@H](Cc5ccc(OS(=O)(=O)O)cc5)C(=O)N[C@@H](CC(=O)O)C(=O)N[C@@H](Cc5ccc(OS(=O)(=O)O)cc5)C(=O)N[C@@H](CO)C(=O)O)C4=O)NC(=O)[C@H](Cc4c[nH]cn4)NC(=O)[C@H](CC(C)C)NC(=O)[C@H](CC(N)=O)NC(=O)CCSSC[C@H](NC(=O)[C@H](CCCNC(=N)N)NC(=O)CNC(=O)[C@H](CC(C)C)NC1=O)C(=O)N[C@@H](C)C(=O)N1CCC[C@@H]1C(=O)N[C@@H]([C@@H](C)O)C(=O)N[C@@H](Cc1ccc(OCC4CCCCC4)cc1)C(=O)N3)C(=O)N[C@@H](CCC(N)=O)C(=O)N[C@@H](CC(C)C)C(=O)N[C@@H](CCCNC(=N)N)C(=O)N2` (stereo partly shown) [mCD4.2-PS1], for which the IC50 worked out at 0.035 nM in [1] (Table 2, B-R5, 10^-3 MOI, TZM-bl cells, 48 h, mean of at least 2 independent experiments, triplicates); 0.0073 nM in data set [2] (Table 2, B-X4, 10^-3 MOI, TZM-bl cells, 48 h, mean of at least 2 independent experiments, triplicates); 0.68 nM in data set [3]; 0.28 nM in [4]; 8.9 nM in [5]; 0.031 nM in data set [6]. Moreover, the IC50 in [7] turned out to be 1.3 nM; in data set [8], 0.046 nM; in [9], 4.9 nM; in [10], 1060 nM; in [11] it was 4 nM; in data set [12], 0.01 nM. Also, the IC50 came to 0.12 nM in [13]; 58 nM in data set [14]; 206 nM in data set [15]; 0.1 nM in [17] (48 h, read-out: IC50 (nM) 48h, cell-cell transmission); 0.2 nM in [17] (72 h, read-out: IC50 (nM) 72h, cell-cell transmission); 2.2 nM in [19]. Moreover, the “activity fold increase, Bal” value in data set [1] (setting [20]) was 3.8. The “activity fold increase, IIIB” value in [2] (setting [20]) was determined as 2.8. Besides, in data set [16], the “binding of 3BNC117 bNAb to cell-surface Env” value is listed as “strongly inhibited”. The CC50 in [18] is over 50000 nM.

For the origin of these results see publication PMC5056392, “CD4-mimetic sulfopeptide conjugates display sub-nanomolar anti-HIV-1 activity and protect macaques against a SHIV162P3 vaginal challenge” (Scientific Reports, 2016).
